Key:
H5N6 wt NA = H5N6 wt NA (Influenza A virus, UniProt A0A0A0QMP7); assay: MUNANA fluorescence-based NA inhibition assay, live virus; details: read-out: IC50 ± SD, mean of n=3
H5N8 wt NA = H5N8 wt NA (Influenza A virus, UniProt W8NQ88); assay: as above; details: read-out: IC50 ± SD, mean of n=3
H5N2 wt NA = H5N2 wt NA (Influenza A virus, UniProt A0A219V3U5)

## CC(=O)N[C@H]1[C@H]([C@H](O)[C@H](O)CO)OC(C(=O)O)=C[C@@H]1N=C(N)N
Wt H5N2 virus
  EC50: 0.5 nM
Wt H5N6 virus
  EC50: 2.23 nM

## oseltamivir carboxylate
H5N6 wt NA
  IC50: 0.96 nM
H5N8 wt NA
  IC50: 1.35 nM
H5N2 wt NA
  IC50: 0.14 nM
Wt H5N2 virus
  EC50: 0.2 nM
Wt H5N6 virus
  EC50: 2.27 nM

## peramivir
H5N6 wt NA
  IC50: 0.08 nM
H5N8 wt NA
  IC50: 0.04 nM
H5N2 wt NA
  IC50: 0.09 nM
Wt H5N2 virus
  EC50: 0.06 nM
Wt H5N6 virus
  EC50: 0.15 nM

From PMC7534037
